# Measurements from article PMC6272715, “Discovery of Novel Small Molecule Anti-HCV Agents via the CypA Inhibitory Mechanism Using O-Acylation-Directed Lead Optimization” (Molecules, 2015).
# System: JFH1-2a virus (wild type)
# Test: HCV virus assay, JFH1-2a wild type, Huh 7.5.1 cells
# Conditions: JFH1-2a virus assay EC50 ratio
smiles,measurement,value
"CCCCCCCC(=O)Oc1cccc(O)c1C(=O)NC(=O)NC1c2ccccc2-c2ccccc21 [Compound 25, 1-(2-Hydroxy-6-n-Octanoyloxybenzoyl)-3-(9H-fluoren-9-yl)-urea]",fold more potent than 1 in virus assay,3.5 fold
same,fold more potent than CsA in virus assay,2.1 fold
